Compound potency records, mixed from different reports. Data source: NIAID ChemDB in PubChem.

All rows: tests on isolated targets; organism: HIV-1; protein: Reverse transcriptase; endpoint: IC50

Rows are shuffled and stem from different studies. An empty or dashed field is not shown. ICn: concentration for n% inhibition. Two numbers with a dash give a range or band.

compound	strain	mutations	read by	value
NS(=O)(=O)c1ccc(NC(=O)c2ccc(SSc3ccc(C(=O)Nc4ccc(S(N)(=O)=O)cc4)cc3)cc2)cc1				>100 µM
CC(C)c1cnc(C2C=C(c3ccc(Cl)cc3)N=C(N)S2)cn1			RT activity / ELISA / absorbance	34.42 µM
Cc1ccc(-c2cs/c(=N\N=C3\C(=O)Nc4ccc(Cl)cc43)n2C)cc1			RT activity / nucleotide incorporation / fluorescence	85 µM
CC(C)=CCCC(C)C1CC/C(C)=C/C/C=C(/C=O)C1C=O			radiometric	9.2 µg/mL
O=c1cc(Sc2ccc(Cl)cc2)[nH]c(=O)n1O			fluorescence	0.64 µM
CCN1c2ccccc2N(C)C(=O)c2cnn(C)c21	IIIB		nucleotide incorporation / radiometric	>30 µM
Nc1ncnc2c1ccn2[C@H]1C[C@H](F)[C@@H](COP(=O)(O)OP(=O)(O)OP(=O)(O)O)O1			RT activity	0.43 µM
CCCOC(=O)CC(OCC)n1cc(C)c(=O)[nH]c1=O			ELISA	2.4 µM
Cn1c(-c2ccc(Cl)c(Cl)c2)cs/c1=N\N=C1\C(=O)Nc2ccc(Cl)cc21			RT activity / nucleotide incorporation / fluorescence	98 µM
NCCC1C=Nc2ccccc21				94.9 µM
CCN1c2ncc(CCOc3ccc4[nH]c(=O)[nH]c4c3)cc2C(=O)N(C)c2cccnc21	IIIB	RT-K103N Y181C	nucleotide incorporation / radiometric	>0.1 µM
CSc1ncc2c(n1)N(C(C)C)c1ccccc1N(C)C2=O	IIIB		nucleotide incorporation / radiometric	>30 µM
CC(C)c1cnc(C2C=C(c3ccccc3)N=C(N)S2)cn1			RT activity / ELISA / absorbance	>100 µM
CCOC(=O)C(=O)CC(=O)/C=C/c1cccn1Cc1ccccc1Cl			RNase H / radiometric	7.4 µM
CCN1c2ccccc2N(C)C(=O)c2cnc(-c3ccccc3)nc21	IIIB		nucleotide incorporation / radiometric	>30 µM
CCOC(CC(=O)OCC(C)C)n1ccc(=O)[nH]c1=O			ELISA	16.5 µM
Cn1c(-c2ccc(C#N)cc2)cs/c1=N\N=C1\C(=O)Nc2ccc(Cl)cc21			RT activity / nucleotide incorporation / fluorescence	28 µM
Cc1ccccc1C1=CC(c2cnc(C(C)C)cn2)SC(N)=N1			RT activity / ELISA / absorbance	89.33 µM
CCN1c2ncc(CCOc3cccc4c3CNC(=O)N4CC(=O)O)cc2C(=O)N(C)c2cccnc21	IIIB	RT-K103N Y181C	nucleotide incorporation / radiometric	>0.1 µM
CCN1c2ccccc2N(C)C(=O)c2cncnc21	IIIB		nucleotide incorporation / radiometric	>30 µM
CS(C)=O			RT activity / absorbance	>1000 µM
COc1cc(/C=C/C(=O)O)ccc1O				>100 µM
C/C1=C\C=C\C2(C)C=C(CO[C@H]3O[C@H](CO)[C@H](O)[C@H](O)[C@H]3O)C(C)CC23OC([O-])C(C3=O)C(O)/C=C/C2(C)C=C(C=O)C(C)CC23OC([O-])C(C3=O)C(O)/C(C)=C/C=C/C2C=C(CO[C@H]3O[C@H](CO)[C@H](O)[C@H](O)[C@H]3O)C(C)CC23OC([O-])C(C3=O)C(O)/C=C/C2(C)C=C(C=O)C(C)CC23OC([O-])C(C3=O)C1O	IIIB		RT activity	0.8 µg/mL
CCN1c2ncc(CCOc3ccc(-c4ccc(C(=O)O)cc4)c(Cl)c3)cc2C(=O)N(C)c2cccnc21	IIIB	RT-K103N Y181C	nucleotide incorporation / radiometric	0.05–0.1 µM
CCN1C(=O)c2cc(CCOc3cccc4c3CNC(=O)N4)cnc2N(CC)c2ncccc21	IIIB		nucleotide incorporation / radiometric	<0.05 µM
Cc1ccc([C@H]2C[C@]23C(=O)N(C)c2ccccc23)cc1			RT activity / nucleotide incorporation	>120 µg/mL
Cc1cn(C2OC(CO[Si](C)(C)C(C)(C)C)C3(OS(=O)(=O)C=C3N)C2O[Si](C)(C)C(C)(C)C)c(=O)n(CCCNC(=O)c2ccc(C(=O)c3ccccc3)cc2)c1=O			nucleotide incorporation	0.5 µM
Cc1ccc(C)c(CS(=O)(=O)c2cccc[n+]2[O-])c1			nucleotide incorporation / radiometric	107 µg/mL
O=C(O)c1cc(O)c2c(c1)[C@@H]([C@H]1c3cc(C(=O)O)cc(O)c3C(=O)c3c(O[C@@H]4O[C@H](CO)[C@@H](O)[C@H](O)[C@H]4O)cccc31)c1cccc(O[C@@H]3O[C@H](CO)[C@@H](O)[C@H](O)[C@H]3O)c1C2=O		N474A	RNase H / radiometric	10.8 µM
Cc1cn(C2OC(CO[Si](C)(C)C(C)(C)C)C3(OS(=O)(=O)C=C3N)C2O[Si](C)(C)C(C)(C)C)c(=O)n(CC(=O)N(CCCl)CCCl)c1=O			nucleotide incorporation	8.2 µM
Cn1c(-c2ccc(F)cc2F)cs/c1=N\N=C1\C(=O)Nc2ccc(Cl)cc21			RT activity / nucleotide incorporation / fluorescence	54 µM
C[C@H]1C2(O)CCC3C1(CCC1[C@@]3(C)CC[C@@]3(C)C4C[C@](C)(C(=O)O)CC[C@]4(C)CC[C@]13C)CO2	IIIB		RT activity	100 µg/mL
CCn1c(C)c(C(=O)OC)c(C(=O)OC)c1Cc1ccccc1	BH10			0.64 µM
C=CC(C)(C)c1[nH]c2ccccc2c1C1=C(O)C(=O)C(c2cn3c4c(cccc24)CCC3(C)C)=C(O)C1=O			binding	4.5 µM
CCCCCCCCCCCCCCCC(=O)NC1C(COP(=O)(O)OC2CC(COP(=O)(O)OC3C(O)C(CO)OC3n3cnc4c(N)ncnc43)OC2n2cnc3c(N)ncnc32)OC(n2cnc3c(N)ncnc32)C1O				100 µM
CN1C(=O)[C@]2(C[C@@H]2c2ccccc2)c2cc(Cl)ccc21			RT activity / nucleotide incorporation	110 µg/mL
CCN1c2ncc(CCOc3ccc(-c4ccc(CCC(=O)O)o4)cc3)cc2C(=O)N(C)c2cccnc21	IIIB		nucleotide incorporation / radiometric	<0.05 µM
CCCCCCCCCCCCCCCC(=O)NC1C(COP(=O)(O)OC2C(O)C(COP(=O)(O)OC3C(O)C(CO)OC3n3cnc4c(N)ncnc43)OC2n2cnc3c(N)ncnc32)OC(n2cnc3c(N)ncnc32)C1O				>100 µM
COc1ccc(-c2cs/c(=N\N=C3\C(=O)Nc4ccc(Cl)cc43)n2C)cc1			RT activity / nucleotide incorporation / fluorescence	28 µM
CCCCOC(=O)CC(OCC)n1cc(C)c(=O)[nH]c1=O			ELISA	1.05 µM
O=c1[nH]c(=O)n(COCc2ccccc2)c2c1CCCCC2c1ccccc1			ELISA	1.51 µM
CC(C)=CCC/C(C)=C/CC/C(C)=C/CC/C(C)=C/CC/C(C)=C/CC/C(C)=C/Cc1cc(O)ccc1O			nucleotide incorporation	4.5 µM
CCN1c2ncc(CCOc3ccc4c(c3)CNC(=O)N4)cc2C(=O)N(C)c2cccnc21	IIIB	RT-K103N Y181C	nucleotide incorporation / radiometric	>0.1 µM
Cc1cccc(CS(=O)(=O)c2cccc[n+]2[O-])c1			nucleotide incorporation / radiometric	161 µg/mL
O=S(=O)(Cc1ccccc1I)c1cccc[n+]1[O-]			nucleotide incorporation / radiometric	186 µg/mL
CCN1c2ncc(CCOc3cccc4c3COC(=O)N4CC(=O)O)cc2C(=O)N(C)c2cccnc21	IIIB		nucleotide incorporation / radiometric	0.05–0.1 µM
CC(C)N1c2ccccc2N(C)C(=O)c2cnc(-c3ccccc3)nc21	IIIB		nucleotide incorporation / radiometric	>30 µM
CCOC(CC(=O)OCC(C)C)n1cc(C)c(=O)[nH]c1=O			ELISA	7 µM
CCN1c2ncc(CCOc3ccc(-c4cccc(CC(=O)O)c4)cc3C)cc2C(=O)N(C)c2cccnc21	IIIB	RT-K103N Y181C	nucleotide incorporation / radiometric	<0.05 µM
Cc1cn([C@H]2C[C@H](F)[C@@H](COP(=O)(O)OP(=O)(O)OP(=O)(O)O)O2)c(=O)[nH]c1=O	IIIB			0.2 µM
[N-]=[N+]=N[C@H]1C[C@H](n2cc(/C=C/c3ccccc3)c(=O)[nH]c2=O)O[C@@H]1COP(=O)(O)OP(=O)(O)OP(=O)(O)O			nucleotide incorporation / radiometric	0.2 µM
CCN1c2ncc(CCOc3ccc4c(c3)CN(C)C(=O)N4C)cc2C(=O)N(C)c2cccnc21	IIIB	RT-K103N Y181C	nucleotide incorporation / radiometric	>0.1 µM
CCN1c2ncc(CCOc3ccc(-c4cccc(C(=O)O)c4)cc3C)cc2C(=O)N(C)c2cccnc21	IIIB	RT-K103N Y181C	nucleotide incorporation / radiometric	<0.05 µM
Cc1cn(C2OC(CO[Si](C)(C)C(C)(C)C)C3(OS(=O)(=O)C=C3N)C2O[Si](C)(C)C(C)(C)C)c(=O)n(CCCNC(=O)c2ccc(N=[N+]=[N-])cc2O)c1=O			nucleotide incorporation	0.4 µM
CCN1c2ncc(CCOc3ccc4c(c3)CNC(=O)N4C)cc2C(=O)N(C)c2cccnc21	IIIB	RT-K103N Y181C	nucleotide incorporation / radiometric	>0.1 µM

A second listing of 4 rows from above:

{"compound": "CCN1c2ncc(CCOc3ccc4[nH]c(=O)[nH]c4c3)cc2C(=O)N(C)c2cccnc21", "strain": "IIIB", "mutations": "RT-K103N Y181C", "read by": "nucleotide incorporation / radiometric", "value": ">0.1 µM"}
{"compound": "CCn1c(C)c(C(=O)OC)c(C(=O)OC)c1Cc1ccccc1", "strain": "BH10", "value": "0.64 µM"}
{"compound": "Cc1ccc(-c2cs/c(=N\\N=C3\\C(=O)Nc4ccc(Cl)cc43)n2C)cc1", "read by": "RT activity / nucleotide incorporation / fluorescence", "value": "85 µM"}
{"compound": "CC(C)c1cnc(C2C=C(c3ccc(Cl)cc3)N=C(N)S2)cn1", "read by": "RT activity / ELISA / absorbance", "value": "34.42 µM"}